Pooled drug test results. Numbers come from NIAID ChemDB, via PubChem.

Shared fields: growth or infection tests; species: Hepatitis C virus

Fold resistance: result on the changed form divided by that on wild type. ECn: concentration that inhibits the pathogen or its effect by n%. Inhibition is in % at the dose shown (toxicity tests: loss of growth or viability). Blank or dashed fields: not listed here. Lines come from different laboratories, so protocols vary.

SMILES	strain	mutations	cell line	read by	measure	tested at	value
C[C@@]1(O)[C@H](O)[C@@H](CO)O[C@H]1c1coc2c(N)ncnc12			Hep3B-T5B	MTT	inhibition	50 µg/mL	7.84%
N#Cc1c(-c2ccc(Cl)cc2)nc(NCc2nc3ccccc3[nH]2)[nH]c1=O			Huh7	replicon / PCR	EC90		0.456 µM
CCC[C@H](NC(=O)[C@@H]1[C@H]2CCC[C@H]2CN1C(=O)[C@@H](NC(=O)[C@@H](NC(=O)c1cnccn1)C1CCCCC1)C(C)(C)C)C(=O)C(=O)NC1CC1	K3a/650		Huh7.5	antigen	EC50		29.4 µM
N#Cc1c(-c2ccccc2)nc(SCc2nc3ccccc3[nH]2)[nH]c1=O			Huh7	replicon / PCR	EC90		0.744 µM
Nc1n[nH]c(N)n1			Huh7	PCR	EC90		>100 µM
O=C(O)c1c(-c2ccc(O)cc2)nc(SCc2nc3ccccc3[nH]2)[nH]c1=O			Huh7	replicon / PCR	EC90		0.452 µM
O=c1c(O)c(-c2ccc(O)c(O)c2)oc2cc(O)cc(O)c12	G1		Huh7	PCR	inhibition	1 µM	57%
CCC[C@H](NC(=O)[C@@H]1[C@H]2CCC[C@H]2CN1C(=O)[C@@H](NC(=O)[C@@H](NC(=O)c1cnccn1)C1CCCCC1)C(C)(C)C)C(=O)C(=O)NC1CC1	1b WT			luciferase	EC50		0.475 µM
C[C@@]1(O)[C@H](O)[C@@H](CO)O[C@H]1n1cnc2c(N)nc(N)nc21			Huh7	PCR	EC90		10.4 µM
CC1CCC(C(=O)N(c2cc(C#CC(C)(C)C)sc2C(=O)O)C2CCC(O)CC2)CC1	GT3a		Huh7-Lunet	luciferase	EC50		>50 µM
CC(C)OC(=O)[C@H](C)N[P@](=O)(OC[C@H]1O[C@@](C#N)(c2ccc3c(N)ncnn23)[C@](C)(O)[C@@H]1OC(=O)C(C)C)Oc1ccccc1	1b Con1	N142T	1C	luciferase	fold resistance		1.1
C[C@@]1(O)[C@H](O)[C@@H](CO)O[C@H]1n1cnc2c(N)ncnc21	GT4a		Huh7-Lunet	luciferase	EC50		0.24 µM
CC(C)(CO)C(=O)SCCOP(=O)(NCc1ccccc1)OC[C@H]1O[C@@H](n2cnc3c(=O)[nH]c(N)nc32)[C@](C)(O)[C@@H]1O	GT1a	P32L	Replicon cells	replicon	fold resistance		0.89
O=C(O)c1c(-c2ccc(O)cc2)nc(NCc2nc3ccccc3[nH]2)[nH]c1=O			Huh7	replicon / PCR	EC90		0.987 µM
NC(=O)NO			Huh7	PCR	EC90		>100 µM
N#Cc1c(-c2ccc(F)cc2)nc(NCc2nc3ccccc3[nH]2)[nH]c1=O			Huh7	replicon / PCR	EC90		0.654 µM
Clc1ccc(Cn2c(CN3CCCC3)nc3ccccc32)cc1	1b Con1		Huh7	luciferase / replicon	inhibition	10 µM	67.03%
O=C(O)c1c(-c2ccccc2Cl)nc(NCc2nc3ccccc3[nH]2)[nH]c1=O			Huh7	replicon / PCR	EC90		1.43 µM
CC(=O)N(O)CCCCCNC(=O)CCC(=O)N(O)CCCCCNC(=O)CCC(=O)N(O)CCCCCN			Huh7	PCR	EC90		>100 µM
COc1ccc2c(O[C@@H]3C[C@H]4C(=O)N[C@]5(C(=O)NS(=O)(=O)C6CC6)C[C@H]5/C=C\CCCCN(C)C(=O)[C@@H]4C3)cc(-c3nc(C(C)C)cs3)nc2c1C	1b		Huh7	luciferase / replicon	inhibition	0.003 µM	42.91%
O=C1c2c(O)cc(O)cc2O[C@H](c2ccc(O)c(O)c2)[C@H]1O	G1		Huh7	PCR	inhibition	5 µM	43%
CC(C)n1c(/C=C/[C@@H](O)C[C@@H](O)CC(=O)O)c(-c2ccc(F)cc2)c2ccccc21			Huh 5-2	luciferase / replicon	EC90		14 µM
O=C(O)c1c(-c2ccco2)nc(NCc2nc3ccccc3[nH]2)[nH]c1=O			Huh7	replicon / PCR	EC90		2.12 µM
C[C@@]1(O)[C@H](O)[C@@H](CO)O[C@H]1n1cnc2c(N)ncnc21	genotype 1b	Y93N	Huh7.5	luciferase / reporter gene	EC50		0.0289 µM
NC(=O)c1ncn([C@@H]2O[C@H](CO)[C@@H](O)[C@H]2O)c1O			Huh7	PCR	EC90		>100 µM
O=C(O)c1c(-c2ccc(F)cc2)nc(SCc2nc3ccccc3[nH]2)[nH]c1=O			Huh7	replicon / PCR	EC90		0.678 µM

The last 2 rows once more:

SMILES | strain | mutations | cell line | read by | measure | tested at | value
NC(=O)c1ncn([C@@H]2O[C@H](CO)[C@@H](O)[C@H]2O)c1O |  |  | Huh7 | PCR | EC90 |  | >100 µM
O=C(O)c1c(-c2ccc(F)cc2)nc(SCc2nc3ccccc3[nH]2)[nH]c1=O |  |  | Huh7 | replicon / PCR | EC90 |  | 0.678 µM